Assay results published in publication PMC3948918 (PLoS ONE, 2014).

How the values were obtained:
[1] = tested on: OATP1B1-expressing RKO cells; conditions: read-out: IC50 RKO B1; RKO stably transfected with OATP1B1; 1000 cells/well, 5% fetal bovine serum, 3 days exposure, sulforhodamine assay; average of at least three independent determinations in triplicate
[2] = tested on: OATP1B1- and OATP1B3-expressing HeLa or RKO cell lines; assay: Cytotoxicity and transporter selectivity as summarised in the text
[3] = tested on: RKO control cells; assay: Cytotoxicity (sulforhodamine), RKO stably transfected with empty vector
[4] = tested on: OATP1B3-expressing RKO cells; conditions: read-out: IC50 RKO B3; RKO stably transfected with OATP1B3; 1000 cells/well, 5% fetal bovine serum, 3 days exposure, sulforhodamine assay; average of at least three independent determinations in triplicate

Measured: IC50

C/C=C1/NC(=O)CC[C@H](C(=O)O)NC(=O)[C@@H](C)[C@H](/C=C/C(C)=C/[C@H](C)[C@H](Cc2ccccc2)OC)NC(=O)[C@H](CCCNC(=N)N)NC(=O)C[C@H](C(=O)O)NC(=O)[C@H](CCCNC(=N)N)NC(=O)[C@@H](C)NC1=O
> 100 nM: all assays above
